Values from PubChem BioAssay AID624099 (ICCB-Longwood, 2012).

Screen: 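Host factors E2 relies on to silence an HPV18 LCR reporter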 (primary screen)
System: human C33A cervical carcinoma cells (HPV-negative) stably expressing BPV1 E2 and an HPV18 LCR luciferase reporter
Knock-down reagent: siRNA pool against human genes, 40 nM
Timing: 72 h
Read-out: 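HPV18 LCR reporter light per well, converted to plate-wise z-scores that exclude control wells, and averaged over triplicate plates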
Reading the numbers: mean z-score and z-score: higher = stronger reporter signal, weaker E2 silencing
Active means: 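Mean z ≥ 2 together with z ≥ 2 in two or more of the three replicates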
Shown is an unselected part of about 21,000 deposited reagents. 497 of them (2.4%) were called active. 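Higher z means weaker E2 silencing; only reporter increases were scored, and knock-downs that hurt cell survival may mask genuine repressor factors.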

mean z-score	z-score, replicate A	z-score, replicate B	z-score, replicate C	call	target gene
0.96	0.86	0.83	1.18	inactive	SINHCAF (SIN3-HDAC complex associated factor)
1.11	0.75	1.23	1.36	inactive	DAAM1 (dishevelled associated activator of morphogenesis 1)
-0.73	-0.7	-0.77	-0.72	inactive	CLTB (clathrin light chain B)
0.43	0.19	0.7	0.4	inactive	SPCS1 (signal peptidase complex subunit 1)
-0.85	-0.97	-0.44	-1.13	inactive	KLK13 (kallikrein related peptidase 13)
0.1	0.33	0.18	-0.21	inactive	ZNF565 (zinc finger protein 565)
-0.44	-0.75	-0.41	-0.17	inactive	LAS1L (LAS1 like ribosome biogenesis factor)
-0.46	-0.57	-0.35	-0.45	inactive	GTPBP6 (GTP binding protein 6)
1.55	1.57	1.49	1.6	inactive	ZBTB24 (zinc finger and BTB domain containing 24)
0.83	0.82	0.85	0.81	inactive	BBOX1 (gamma-butyrobetaine hydroxylase 1)
0.74	0.65	0.74	0.83	inactive	VDR (vitamin D receptor)
0.58	0.29	0.94	0.51	inactive	SEL1L2 (SEL1L2 adaptor subunit of SYVN1 ubiquitin ligase)
-0.9	-0.87	-1.08	-0.76	inactive	OTOGL (otogelin like)
1.42	1.18	1.43	1.66	inactive	SDF2 (stromal cell derived factor 2)
2.54	2.23	2.77	2.62	active	AASDHPPT
-1.93	-1.76	-1.98	-2.06	inactive	TUBA1C (tubulin alpha 1c)
-0.49	-0.81	-0.41	-0.24	inactive	SATL1 (spermidine/spermine N1-acetyl transferase like 1)
1.03	1.04	1.08	0.98	inactive	SPOCK2
0.5	0.71	0.58	0.21	inactive	CLDN11 (claudin 11)
2.15	2.03	2.24	2.18	active	ARMCX6 (armadillo repeat containing X-linked 6)
-0.36	0.12	-0.67	-0.53	inactive	PRCP (prolylcarboxypeptidase)
-0.22	-0.16	-0.23	-0.28	inactive	CDC45 (cell division cycle 45)
0.19	0.86	-0.34	0.03	inactive	ARSD (arylsulfatase D)
0.07	-0.45	-0.15	0.82	inactive	PILRA (paired immunoglobin like type 2 receptor alpha)
0.45	0.7	0.25	0.39	inactive	TRIM23 (tripartite motif containing 23)
-0.51	-0.75	-0.49	-0.3	inactive	KDF1 (keratinocyte differentiation factor 1)
2.21	2.34	1.84	2.44	active	RAP1GDS1 (Rap1 GTPase-GDP dissociation stimulator 1)
1.4	1.38	1.78	1.03	inactive	USP41P (ubiquitin specific peptidase 41, pseudogene)
-0.67	-0.5	-0.76	-0.75	inactive	CDKN2A (cyclin dependent kinase inhibitor 2A)
-0.35	-0.51	-0.43	-0.11	inactive	CENPH (centromere protein H)
0.29	0.61	0.1	0.15	inactive	IRX2-DT (IRX2 divergent transcript)
1.19	1.03	1.49	1.05	inactive	LINC00996 (long independently transcribed non-coding RNA 996)
0.18	0	0.14	0.4	inactive	HTR2B (5-hydroxytryptamine receptor 2B)
-1.48	-1.31	-1.52	-1.62	inactive	CST1 (cystatin SN)
1.19	0.97	1.2	1.38	inactive	LCE1C (late cornified envelope 1C)
0.43	0.55	-0.05	0.78	inactive	PRKCB (protein kinase C beta)
-0.41	-0.53	-0.56	-0.14	inactive	LOC391767 (retired record)
-0.92	-1.22	-0.7	-0.84	inactive	KLF12 (KLF transcription factor 12)
0.51	0.79	0.41	0.33	inactive	TMEM37 (transmembrane protein 37)
-0.74	-0.69	-0.54	-0.98	inactive	LOC401584 (retired record)
-0.14	-0.44	0.01	0.01	inactive	FDPSP3 (farnesyl diphosphate synthase pseudogene 3)
0.84	0.88	0.38	1.27	inactive	TRIM6-TRIM34 (TRIM6-TRIM34 readthrough)
-0.19	-0.61	-0.15	0.18	inactive	NOL9 (nucleolar protein 9)
-0.89	-0.99	-0.75	-0.94	inactive	PTP4A1 (protein tyrosine phosphatase 4A1)
-0.37	-0.36	-0.31	-0.43	inactive	ALKAL2 (ALK and LTK ligand 2)
0.13	0.15	0.13	0.12	inactive	IFNA13 (interferon alpha 13)
-0.16	0.28	0.13	-0.88	inactive	PPOX (protoporphyrinogen oxidase)
-0.1	-0.62	0.01	0.32	inactive	LRFN3
-0.1	-0.12	0.08	-0.25	inactive	PLA2G2D (phospholipase A2 group IID)
0.48	0.79	0.3	0.35	inactive	APLP1 (amyloid beta precursor like protein 1)
1.07	0.94	1.23	1.04	inactive	BTN3A2 (butyrophilin subfamily 3 member A2)
0.83	0.39	0.9	1.21	inactive	PCDHB12 (protocadherin beta 12)
-1.32	-1.52	-1.1	-1.34	inactive	SSMEM1 (serine rich single-pass membrane protein 1)
-0.03	0.12	0.29	-0.51	inactive	LOC400216 (retired record)
1.06	0.95	1.15	1.09	inactive	SSX3 (SSX family member 3)
0.19	0.14	0.46	-0.05	inactive	KRT75 (keratin 75)
-0.25	0	-0.35	-0.4	inactive	DLGAP2 (DLG associated protein 2)

Part of the list above in another layout.
| mean z-score | z-score, replicate A | z-score, replicate B | z-score, replicate C | call | target gene |
| --- | --- | --- | --- | --- | --- |
| -0.46 | -0.57 | -0.35 | -0.45 | inactive | GTPBP6 (GTP binding protein 6) |
| 1.55 | 1.57 | 1.49 | 1.6 | inactive | ZBTB24 (zinc finger and BTB domain containing 24) |
| 0.83 | 0.82 | 0.85 | 0.81 | inactive | BBOX1 (gamma-butyrobetaine hydroxylase 1) |
| 0.74 | 0.65 | 0.74 | 0.83 | inactive | VDR (vitamin D receptor) |
| 0.58 | 0.29 | 0.94 | 0.51 | inactive | SEL1L2 (SEL1L2 adaptor subunit of SYVN1 ubiquitin ligase) |
| -0.9 | -0.87 | -1.08 | -0.76 | inactive | OTOGL (otogelin like) |
